Results of unrelated studies side by side (data: NIAID ChemDB).

All rows: target-level tests; organism: Hepatitis C virus; protein: Nonstructural protein 3 NTPase/helicase; endpoint: IC50

ICn: concentration for n% inhibition.

structure,method,result
OC[C@H]1O[C@@H](n2cnc3cc(Cl)c(Cl)cc32)[C@H](O)[C@@H]1O,,450 µM
O=C(CCCCC(=O)Nc1ccc(-c2nc3ccccc3s2)cc1)Nc1ccc(-c2nc3ccccc3s2)cc1,,>25 µg/mL
N#Cc1cccc(C(=O)N(Cc2ccc(-c3ccccc3C(F)(F)F)o2)[C@H](Cc2ccccc2)C(=O)O)c1,HPLC,<5 µM
COc1cccc2sc(N)nc12,,>25 µg/mL
O=C(OC[C@H]1O[C@@H](n2cnc3c(=O)[nH]cnc32)[C@H](O)[C@@H]1O)c1ccc(S(=O)(=O)F)cc1,,200 µM
O=C(c1ccc(C(=O)N2CCC(c3nc4ccccc4[nH]3)CC2)cc1)N1CCC(c2nc3ccccc3[nH]2)CC1,,10 µM
CN1CCN(CCCN2c3ccccc3Sc3ccc(C(F)(F)F)cc32)CC1,,105 µM
O=C(O)[C@@H](Cc1ccccc1)N(Cc1ccc(-c2cc3ccccc3o2)cc1)C(=O)c1ccc(Cl)cc1Cl,HPLC,5–20 µM
O=C1c2c(O)ccc(O)c2C(=O)C2C(NCCNCCO)=CC=C(NCCNCCO)C12,,6.7 µM
O=C(NCCCCCCNC(=O)Nc1ccc(-c2nc3ccccc3[nH]2)cc1)Nc1ccc(-c2nc3ccccc3[nH]2)cc1,,>25 µg/mL
Clc1c(Cl)c(Cl)c2n[nH]nc2c1Cl,,>500 µM
Nc1nc2c(ncn2CCCl)c(=O)[nH]1,,120 µM
O=C(CCCCCCCCC(=O)Nc1ccc(-c2nc3ccccc3[nH]2)cc1)Nc1ccc(-c2nc3ccccc3[nH]2)cc1,,>25 µg/mL
Nc1nc2ncn(CCCl)c2c(=O)[nH]1,,18 µM
O=C(CCC(=O)Nc1ccc(-c2nc3ccccc3[nH]2)cc1)Nc1ccc(-c2nc3ccccc3[nH]2)cc1,,0.7 µM
CC(=O)O[C@H]1C(=O)[C@@]2(C)[C@H]([C@H](OC(=O)c3ccccc3)[C@]3(O)C[C@H](OC(=O)[C@H](O)[C@@H](NC(=O)c4ccccc4)c4ccccc4)C(C)=C1C3(C)C)[C@]1(OC(C)=O)CO[C@@H]1C[C@@H]2O,,>1000 µM
COc1cccc2c1C(=O)c1c(O)c3c(c(O)c1C2=O)C[C@@](O)(C(C)=O)C[C@@H]3O[C@H]1C[C@H](N)[C@H](O)[C@H](C)O1,,57 µM
O=C(CCCCCCC(=O)Nc1nc2ccccc2[nH]1)Nc1nc2ccccc2[nH]1,,>25 µg/mL
CO[C@@H]1[C@@H](OC)[C@@H](OC)C(O[C@H]2C[C@](C)(O)C(C(=O)CO)c3c(O)c4c(c(O)c32)C(=O)c2c(O)cc3c(c2C4=O)OC2OC3(C)C(O)C(N(C)C)C2O)O[C@H]1C,,0.1 µM

3 of the rows above, restated:

structure,method,result
CN1CCN(CCCN2c3ccccc3Sc3ccc(C(F)(F)F)cc32)CC1,,105 µM
O=C(CCC(=O)Nc1ccc(-c2nc3ccccc3[nH]2)cc1)Nc1ccc(-c2nc3ccccc3[nH]2)cc1,,0.7 µM
O=C(c1ccc(C(=O)N2CCC(c3nc4ccccc4[nH]3)CC2)cc1)N1CCC(c2nc3ccccc3[nH]2)CC1,,10 µM

a–b is a range or a potency band. Neighbouring rows are from separate reports. An empty or dashed field is not shown.